A mixed list of measured activities; the numbers were collected in NIAID ChemDB.

Shared fields: growth or infection tests; species: HIV-1; cell line: PBMC; read-out: EC95

ECn is the concentration giving n% inhibition of infection, replication or growth.

structure	strain	changes	method	setting	value
CC[C@H](C)[C@H](C(=O)O)N1C[C@H](CN2CCC(c3cc(Cc4ccc(OC)c(OC)c4)nn3CC)CC2)[C@@H](c2cccc(F)c2)C1	BaL	-	p24	-	0.0055 µM
CCCN(C(=O)Nc1ccccc1)C1CCN(CCC(CN(C)S(=O)(=O)c2ccccc2)c2ccccc2)CC1	YU2	-	p24	-	6 µM
CC(C)[C@H](C(=O)O)N1C[C@H](CN2CCC(c3ccc(F)cc3)CC2)[C@@H](c2ccccc2)C1	BaL	-	-	-	>3 µM
C=CCN(C(=O)NCc1ccc([N+](=O)[O-])cc1)C1CCN(CC[C@H](CN(C)S(=O)(=O)c2ccccc2)c2ccccc2)CC1	YU2	-	p24	-	0.25 µM
O=C1N(Cc2ccc(CO)cc2)[C@H](Cc2ccccc2)[C@H](O)[C@@H](O)[C@@H](Cc2ccccc2)N1Cc1ccc(CO)cc1	Isolate A PR L10V/T12I/G16E/R57K/I64V	PR-L10V T12I G16E R57K I64V	p24	-	0.2 µM
CCn1nc(Cc2ccc(C#N)cc2)cc1C1CCN(C[C@H]2CN([C@@H](C(=O)O)C(C)(C)C)C[C@@H]2c2cccc(F)c2)CC1	BaL	-	p24	50% human serum	0.0093 µM
C#CCN(C(=O)OCc1ccccc1)C1CCN(CCC(C)(CN(C)S(=O)(=O)c2ccccc2)c2ccccc2)CC1	YU-2 (M-tropic)	-	p24	-	1.5 µM
CN(C[C@@H](CCN1CCC2(CC1)CC(=O)c1ccccc12)c1cccc(Cl)c1)S(=O)(=O)c1ccccc1	YU-2 (M-tropic)	-	p24	-	1.5 µM
CC(C)(C)NC(=O)[C@@H]1C[C@@H]2CCCC[C@@H]2CN1C[C@@H](O)[C@H](Cc1ccccc1)NC(=O)[C@H](CC(N)=O)NC(=O)c1ccc2ccccc2n1	Isolate A PR L10V/T12I/G16E/R57K/I64V	PR-L10V T12I G16E R57K I64V	p24	-	0.025 µM
CCCN(C(=O)OCc1cccc(C)c1)C1CCN(CCC(CN(C)S(=O)(=O)c2ccccc2)c2ccccc2)CC1	YU-2 (M-tropic)	-	p24	-	1 µM
O=C(O)[C@@H](C1CCCCC1)N1C[C@H](CN2CCC(CCCc3ccccc3)CC2)[C@@H](c2ccccc2)C1	BaL	-	-	-	0.077 µM
CN(C(=O)OCc1ccccc1)C1CCN(CCC(CN(C)S(=O)(=O)c2ccccc2)c2ccccc2)CC1	YU-2 (M-tropic)	-	p24	-	12.5 µM
C=CCN(C(=O)OCc1ccc([N+](=O)[O-])cc1)C1CCN(CCC(CO)(CN(C)S(=O)(=O)c2ccccc2)c2ccccc2)CC1	YU-2 (M-tropic)	-	p24	-	≤0.008 µM
CCCN(C(=O)NCc1ccccc1)C1CCN(CCC(CN(C)S(=O)(=O)c2ccccc2)c2ccccc2)CC1	YU-2 (M-tropic)	-	p24	-	3 µM
CN(C[C@@H](CCN1CCC2(CC1)CS(=O)c1ccccc12)c1cccc(Cl)c1)S(=O)(=O)c1ccccc1	M-tropic YU-2	-	p24 / antigen	-	0.8 µM
CN(C[C@@H](CCN1CCC2(CC1)CS(=O)c1ccccc12)c1ccc(Cl)c(Cl)c1)S(=O)(=O)c1ccccc1	YU-2 (M-tropic)	-	p24	-	12.5 µM
CCCN(C(=O)OCc1ccc([N+](=O)[O-])cc1)C1CCN(CC[C@](CO)(CN(C)S(=O)(=O)c2ccccc2)c2ccccc2)CC1	YU-2 (M-tropic)	-	p24	-	0.1 µM
CN(CC(CCN1CCC(NC(=O)NCc2ccccc2)CC1)c1ccccc1)S(=O)(=O)c1ccccc1	YU2	-	p24	-	0.1 µM
CN(C[C@@H](CCN1CCC2(CC1)CS(=O)(=O)c1ccccc12)c1cccc(Cl)c1)S(=O)(=O)c1ccccc1	M-tropic YU-2	-	p24 / antigen	-	3 µM
CCN(C(=O)OCc1ccc([N+](=O)[O-])cc1)C1CCN(CC[C@](C)(CN(C)S(=O)(=O)c2ccccc2)c2ccccc2)CC1	YU-2 (M-tropic)	-	p24	-	~0.1 µM

For reference, 2 entries again:

structure	strain	changes	method	setting	value
O=C1N(Cc2ccc(CO)cc2)[C@H](Cc2ccccc2)[C@H](O)[C@@H](O)[C@@H](Cc2ccccc2)N1Cc1ccc(CO)cc1	Isolate A PR L10V/T12I/G16E/R57K/I64V	PR-L10V T12I G16E R57K I64V	p24	-	0.2 µM
CN(C[C@@H](CCN1CCC2(CC1)CS(=O)(=O)c1ccccc12)c1cccc(Cl)c1)S(=O)(=O)c1ccccc1	M-tropic YU-2	-	p24 / antigen	-	3 µM

Neighbouring rows are from separate reports. Blank or dashed fields: not listed here.